In PMC6268855, “New Trifluoromethyl Triazolopyrimidines as Anti-Plasmodiumfalciparum Agents” (Molecules, 2012):

system: human hepatoma cell line (HepG2); format: cell-based; settings: selectivity index: ratio of MLD50 (HepG2) to IC50 (P. falciparum W2)
Experimental: For in vitro cytotoxicity experiments, the cell monolayer was trypsinized, washed with culture medium, distributed in a flat-bottomed 96-well plate (5 × 10^3 cells/well), and finally incubated for 18 h at 37 °C for cell adherence.
For cytotoxicity testing, we used the (3-(4,5-dimethylthiazol-2-yl)-2,5-diphenyltetrazolium bromide (MTT) assay, performed as described in the literature. The HepG2 cell line was incubated with 20 µL of the compounds in different concentrations (200–25 µg/mL) for 24 h in an atmosphere of 5% CO2 at 37 °C.
For the MTT assay, which evaluates mitochondrial viability, 20 µL of MTT solution (5 mg/mL) was added, and the plates were incubated for an additional 3 h. After incubation, the supernatant was carefully removed from the wells, followed by addition of 100 µL DMSO with thorough mixing. Optical densities at 570 and 630 nm (background) were determined by an ELISA reader.
Cell viability was expressed as the percentage of control absorbance obtained in untreated cells after subtracting the absorbance from appropriate background. Lastly, the minimum lethal dose for 50% of the cells (MLD50) was determined as previously described in the literature. The ratio between MLD50 and drug activity (IC50) in vitro was used to determine the selectivity index (SI).

| SMILES | SI MDL50/IC50 |
| --- | --- |
| COc1ccc(Nc2cc(C)nc3nc(C(F)(F)F)nn23)cc1 [Compound 11, 7-(4-Methoxyphenylamine)-5-methyl-2-(trifluoromethyl)[1,2,4]triazolo[1,5-a]pyrimidine] | >1,547 |
| COc1cc(Nc2cc(C)nc3nc(C)nn23)cc(OC)c1 [Compound 14, 7-(3,5-Dimethoxyphenylamine)-2,5-dimethyl[1,2,4]triazolo[1,5-a]pyrimidine] | 134 |
| Cc1cc(Nc2ccc(Cl)cc2Cl)n2nc(C(F)(F)F)nc2n1 [Compound 9, 7-(2,4-Dichlorophenylamine)-5-methyl-2-(trifluoromethyl)[1,2,4]triazolo[1,5-a]pyrimidine] | 118 |
| Cc1cc(-n2cccn2)n2nc(C(F)(F)F)nc2n1 [Compound 24, 5-Methyl-7-(1H-pyrazol-1-yl)-2-(trifluoromethyl)[1,2,4]triazolo[1,5-a]pyrimidine] | >355 |
| Cc1cc(Nc2cccc3ccccc23)n2nc(C(F)(F)F)nc2n1 [Compound 4, 5-Methyl-7-(naphthalen-1-ylamine)-2-(trifluoromethyl)[1,2,4]triazolo[1,5-a]pyrimidine] | 148 |
| Cc1cc(Nc2cc(Cl)cc(Cl)c2)n2nc(C(F)(F)F)nc2n1 [Compound 13, 7-(3,5-Dichlorophenylamine)-5-methyl-2-(trifluoromethyl)[1,2,4]triazolo[1,5-a]pyrimidine] | 218 |
| Cc1cc(Nc2cccc(Cl)c2)n2nc(C(F)(F)F)nc2n1 [Compound 7, 7-(3-Chlorophenylamine)-5-methyl-2-(trifluoromethyl)[1,2,4]triazolo[1,5-a]pyrimidine] | 203 |
| Cc1cc(Nc2ccccc2)n2nc(C(F)(F)F)nc2n1 [Compound 6, 5-Methyl-7-phenylamine-2-(trifluoromethyl)[1,2,4]triazolo[1,5-a]pyrimidine] | >227 |
